Laboratory results reported in US20050202001A1 (priority 2002, published 2005).

Tests used:
UACC-257 melanoma cells = test: Melanin content (A405/A280) in UACC-257 melanoma cells; assay type: cell-based, human; settings: UACC-257, agent alone, 72 hours after treatment; toxins 0.1 μg/ml each, PD98059 20 μM, IBMX 200 μM (FIG. 2A)
MALME-3M melanoma cells = test: Melanin content (A405/A280) in MALME-3M melanoma cells; assay type: cell-based, human; settings: agent alone, 72 hours after treatment, toxins 0.1 μg/ml each, PD98059 20 μM, IBMX 200 μM (FIG. 2B)

## COc1cccc(-c2cc(=O)c3ccccc3o2)c1N [PD98059]
UACC-257 melanoma cells
  melanin production: dramatic increase in melanin production
MALME-3M melanoma cells
  melanin production: dramatic increase in melanin production
